Pooled drug test results. Numbers come from NIAID ChemDB, via PubChem.

Shared fields: whole-cell or culture tests; agent: Mycobacterium tuberculosis

Lines come from different laboratories, so protocols vary. MIC bound comes from a single tested concentration. Two numbers with a dash give a range or band. An empty or dashed field is not shown. A number after MIC or MFC names an inhibition level or a share of isolates. ECn: concentration that inhibits the pathogen or its effect by n%. Inhibition is in % at the dose shown (toxicity tests: loss of growth or viability).

structure,strain or isolate,read-out,read by,cells,tested at,setting,value
COc1cc2ccnc3c2c(c1OC(=O)N1CCCC1)N(C)C=C3,H37Rv,MIC,,,,,>128 µg/mL
Oc1ccccc1-c1nnc(SCC2(c3ccc(Br)cc3)OCCO2)o1,H37Rv,inhibition,BACTEC,,6.25 µg/mL,,13%
O=C(O)CCc1ccc(O)c2ncccc12,M 607,MIC50,,,,,1–5 µg/mL
O=C(N/N=C/c1ccc(Cl)cc1Cl)c1ccncc1,H37Rv,MIC,,,,,>5 µg/mL
Cc1[nH]ccc2c1[nH]c1cc(=O)ccc12,H37Rv,inhibition,,,6.25 µg/mL,,29%
O=C(O)c1c2ccccc2nc2[nH]c(=O)[nH]c(=O)c12,H37Rv,inhibition,BACTEC,,6.25 µg/mL,,0%
Cc1ccc(-c2cc(-c3ccc(Cl)cc3)nc(/N=C3\C(=O)N(CN4CCCCC4)c4ccc(Br)cc43)n2)cc1,H37Rv,inhibition,BACTEC,,6.25 µg/mL,,88%
CC1(C)C(=O)N2c3ccccc3C3(CC(N4C(=O)c5ccccc5C4=O)C(=O)O3)C2N1C(=O)OCc1ccccc1,H37Rv,inhibition,BACTEC,,12.5 µg/mL,,26%
COc1ccc(-c2nnc(SCC3(c4cccc(OC)c4)OCCO3)o2)cc1,H37Rv,inhibition,BACTEC,,6.25 µg/mL,,0%
COc1ccc(C(=O)CN2CCN(c3cc4c(cc3F)c(=O)c(C(=O)O)cn4C3CC3)CC2)cc1,H37Rv,EC50,,,,,>6.25 µg/mL
Cc1ccc(-c2cc(-c3ccc(Cl)cc3)nc(/N=C3\C(=O)N(CN4CCCCC4)c4ccccc43)n2)cc1,H37Rv,inhibition,BACTEC,,6.25 µg/mL,,89%
COc1cc(-c2nnc(SCC(=O)c3ccc([N+](=O)[O-])cc3)o2)cc(OC)c1OC,H37Rv,inhibition,BACTEC,,6.25 µg/mL,,33%
Cc1nccc2c1[nH]c1cc(OC(=O)c3ccccc3)ccc12,H37Rv,inhibition,,,6.25 µg/mL,,41%
Cc1cccc(C)c1N1C(=O)C(=O)C(c2nc3ccccc3s2)C(=Nc2cccc3c(=O)[nH][nH]c(=O)c23)C1=O,,inhibition,BACTEC,,0.5 µM,,0%
Cc1cc(O)c2ncccc2c1,M 607,MIC50,,,,,5 µg/mL
C=CCn1c(=O)c(C(=O)Nc2nc(C34CC5CC(CC(C5)C3)C4)cs2)c(O)c2ccccc21,H37Rv,inhibition,resazurin,,6.25 µg/mL,,93%
Cc1cc(NN)c2cc(F)ccc2n1,H37Rv,MIC,,VERO,,,>12.5 µg/mL
COc1cccc(C(=O)Oc2c(OC)cc3ccnc4c3c2N(C)C=C4)c1,H37Rv,MIC,,,,,>128 µg/mL
COc1cc(-c2nnc(SCC(=O)c3ccc(Br)cc3)o2)cc(OC)c1OC,H37Rv,inhibition,BACTEC,,6.25 µg/mL,,22%
CCCCCC(=O)N1SC(NC(=O)OC)=Nc2ccccc21,H37Rv,inhibition,BACTEC,,12.5 µg/mL,,16%
Cc1ccnc2c(O)cccc12,M 607,MIC50,,,,,5–10 µg/mL
Cc1nccc2c1[nH]c1cc(OC(=O)/C=C/c3ccccc3)ccc12,H37Rv,inhibition,,,6.25 µg/mL,,26%
CCCCCCCCCCCCSC[C@@H]1N[C@H](CO)[C@@H](O)[C@@H]1O,H37Ra,MIC,,,,,16 µg/mL
COc1ccc2c(NN)ccnc2c1,H37Rv,inhibition,,VERO,12.5 µg/mL,,97%
O=C(O)c1cn(C2CC2)c2cc(N3CCN(C/C(=N/O)c4ccc(F)cc4)CC3)c(F)cc2c1=O,H37Rv,EC50,,VERO,,,<6.25 µg/mL
COc1ccc(/C=N/Nc2cc(C)nc3cc(Cl)ccc23)c2ccccc12,H37Rv,inhibition,,VERO,12.5 µg/mL,,100%
CO[C@H]1/C=C/O[C@@]2(C)Oc3c(c4c(O)c(/C=N/N5CCN(C)CC5)c(c5nn(C)c(c3C)c45)=NC(=O)/C(C)=C\C=C\[C@H](C)[C@H](O)[C@@H](C)[C@@H](O)[C@@H](C)[C@H](OC(C)=O)[C@@H]1C)C2=O,,MIC90,resazurin,,,,>4.8 µM
CCCCCCCCCCCCSC[C@H]1[C@@H](O)[C@H](O)[C@@H](CO)N1Cc1ccccc1,H37Ra,MIC,,,,,64–128 µg/mL
NC[C@H]1O[C@H](O[C@H]2[C@H](O)[C@@H](O[C@H]3O[C@H](CO)[C@@H](O)[C@H](N)[C@H]3O)[C@H](N)C[C@@H]2N)[C@H](N)[C@@H](O)[C@@H]1O,H37Ra,MIC,,,,,2–5 µg/mL
O=C1N[C@@H]([C@@H]2CC[C@@H](Cl)CN2)C(=O)N[C@H]1[C@@H]1CC[C@@H](Cl)CN1,H37Rv,MIC bound,BACTEC,,,,>12.8 µg/mL
CCC(=O)Oc1ccc2c(c1)[nH]c1c(C)nccc12,H37Rv,inhibition,,,6.25 µg/mL,,38%
CCCCCCCCCCCCS(=O)(=O)C[C@@H]1N[C@H](CO)[C@@H](O)[C@@H]1O,H37Ra,MIC,,,,,32–128 µg/mL
COC1=CC(=O)N(C(=O)C2CSC(C(CO)NC(=O)c3csc(C=NO)n3)=N2)C1,H37Rv,inhibition,BACTEC,,12.8 µg/mL,,25%
O=C(O)c1ccc(O)c2ncccc12,M 607,MIC50,,,,,10 µg/mL
CCCC(=O)OCc1cc(=O)n(C)c2c3c4c(cc12)c(C)cc(=O)n4CO3,ETA-R,MIC,,,,,0.4 µg/mL
CCc1nc2c(O)cccc2cc1C,H37Rv,MIC50,,,,,5–10 µg/mL
C=CCNc1c(C)c2c3c4c1C(=O)C(=C(/C=N/N1CCN(C)CC1)C4=O)NC(=O)/C(C)=C\C=C\[C@H](C)[C@H](O)[C@@H](C)[C@@H](O)[C@@H](C)[C@H](OC(C)=O)[C@H](C)[C@@H](OC)/C=C/O[C@@](C)(O2)C3=O,,MIC90,low oxygen,,,,>18.6 µM
CCCCCCCCN1[C@H](CO)[C@@H](O)[C@H](O)[C@@H]1CO,H37Ra,MIC,,,,,>128 µg/mL
CCn1cc(C(=O)O)c(=O)c2cc(F)c(N3CCN(C/C(=N/O)c4ccccc4)CC3)nc21,H37Rv,EC50,,,,,>6.25 µg/mL
Cc1ccc(NCCN2CCCCC2)c2c(=O)c3ccc(Cl)cc3sc12,H37Rv,MIC bound,BACTEC,,,,≤12.5 µg/mL
COc1cccc(C2(CSc3nnc(-c4cc(OC)c(OC)c(OC)c4)o3)OCCO2)c1,H37Rv,inhibition,BACTEC,,6.25 µg/mL,,5%
CCNc1c(C)c2c3c4c1C(=O)C(=C(/C=N/N1CCN(C)CC1)C4O)NC(=O)/C(C)=C\C=C\[C@H](C)[C@H](O)[C@@H](C)[C@@H](O)[C@@H](C)[C@H](OC(C)=O)[C@H](C)[C@@H](OC)/C=C/O[C@@](C)(O2)C3=O,,MIC90,resazurin,,,,>4.7 µM
O=C1OC(c2ccccc2)=N/C1=C\c1ccc(Cl)cc1,H37Rv,MIC bound,BACTEC,,,,>12.5 µg/mL
CC(C(=O)O)c1ccc(O)c2ncccc12,H37Rv,MIC50,,,,,5–10 µg/mL
O=C(CCCO)NN=Cc1ccc([N+](=O)[O-])s1,H37Rv,inhibition,BACTEC,,12.5 µg/mL,,59%
O=[N+]([O-])c1cn2c(n1)OC[C@@H](OCc1ccc(C(F)(F)F)nc1)C2,H37Rv,MIC90,low oxygen,,,,0.53 µM
CC(C)=CC/C(C)=C/CN1[C@H](CO)[C@@H](O)[C@H](O)[C@@H]1CO,H37Ra,MIC,,,,,64 µg/mL
CCCCCCCC/C=C/CCCCCCCCC(=O)Oc1c(OC)cc2ccnc3c2c1N(C)C=C3,H37Rv,MIC,,,,,>128 µg/mL
CC[C@H](CO)NC[C@@H]1O[C@H](CO)[C@@H](O)[C@@H]1O,H37Ra,MIC,,,,,>128 µg/mL
Cc1c2ccnc(-c3ccc(F)cc3)c2cc2c1[nH]c1ccccc12,H37Rv,inhibition,resazurin,,6.25 µg/mL,,100%
CO[C@H]1/C=C/O[C@@]2(C)Oc3c(C)c(NCc4ccccc4)c4c(c3C2=O)C(O)C(/C=N/N2CCN(C)CC2)=C(NC(=O)/C(C)=C\C=C\[C@H](C)[C@H](O)[C@@H](C)[C@@H](O)[C@@H](C)[C@H](OC(C)=O)[C@@H]1C)C4=O,,MIC90,low oxygen,,,,>17.5 µM
Cc1ccc(-c2cc(-c3ccc(Cl)cc3)nc(/N=C3\C(=O)N(CN(C)C)c4ccccc43)n2)cc1,H37Rv,inhibition,BACTEC,,6.25 µg/mL,,90%
O=C(CNC(=O)c1ccccc1)N/N=C/c1ccco1,H37Rv,MIC bound,BACTEC,,,,>12.5 µg/mL
CCc1ccc(C(=O)Oc2c(OC)cc3ccnc4c3c2N(C)C=C4)cc1,H37Rv,MIC,,,,,>128 µg/mL
Nc1nc(-c2ccccc2)c(Sc2nnc(-c3ccccc3)o2)s1,H37Rv,inhibition,BACTEC,,6.25 µg/mL,,55%
O=c1ccc2nc3ccc(O)cc3oc-2c1,H37Rv,MIC,BACTEC,,,,≥128 µg/mL
CCn1cc(C(=O)O)c(=O)c2cc(F)c(N3CCN(C/C(=N/O)c4ccccc4)CC3)cc21,H37Rv,EC50,,,,,>6.25 µg/mL
CCOC(=O)/C(O)=C(/C=NC(=S)c1ccncc1)C(=O)OCC,H37Rv,inhibition,resazurin,,6.25 µg/mL,,-96%
O=C(NN1C(=O)CS(=O)(=O)C1c1ccc(Cl)cc1Cl)c1ccncc1,14PI,MIC,,,,,>5 µg/mL
CCCCOc1ccc2nccc(NN)c2c1,H37Rv,MIC,,,,inside macrophages,0.78 µg/mL
O=Cc1ccc(O)c2ncccc12,H37Rv,MIC50,,,,,>10 µg/mL
CCOC(=O)/C(Cc1cnccn1)=N/O,H37Rv,MIC bound,BACTEC,,,,>12.5 µg/mL
CCCCc1ccc2nccc(NN)c2c1,H37Rv,inhibition,,VERO,12.5 µg/mL,,99%
Cc1ccc(-c2cc(-c3ccc(Cl)cc3)nc(/N=C3\C(=O)N(CN4CCOCC4)c4ccc(Br)cc43)n2)cc1,H37Rv,EC50,BACTEC,,,,<6.25 µg/mL
NC(=S)Nn1c(=O)c2ccccc2c2ccccc2c1=O,H37Rv,inhibition,BACTEC,,12.5 µg/mL,,-6%
COc1ccc(/C(CN2CCN(c3cc4c(cc3F)c(=O)c(C(=O)O)cn4C3CC3)CC2)=N\O)cc1,H37Rv,inhibition,,,6.25 µg/mL,,52%
COc1cc2ccnc3c2c(c1OC(=O)c1ccc(F)cc1)N(C)C=C3,H37Rv,MIC,,,,,>128 µg/mL
CCCCCC(=O)Oc1ccc2c(c1)[nH]c1c(C)nccc12,H37Rv,inhibition,,,6.25 µg/mL,,16%
Clc1ccc(-n2ccnc2)cc1Cl,H37Ra,MIC,resazurin,,,,>12.5 µg/mL
O=C1OC(C(O)CO)C(O)=C1Nc1ccc(S(=O)(=O)c2ccc(NC3=C(O)C(C(O)CO)OC3=O)cc2)cc1,H37Rv,MIC bound,BACTEC,,,,>12.5 µg/mL
Cc1cc(N/N=C/c2cc(C)n(-c3ccccc3)c2C)c2cc(C3CCCCC3)ccc2n1,H37Rv,MIC,,VERO,,,1.56 µg/mL
CCCCCCCCC(=O)c1c(OC)oc(C=O)cc1=O,H37Rv,MIC,BACTEC,,,,≥12.5 µg/mL
CCN(CC)c1ccc(/C=N/Nc2cc(C)nc3ccc(C4CCCCC4)cc23)cc1,H37Rv,inhibition,,VERO,12.5 µg/mL,,100%
Cc1ccc(-c2cc(-c3ccc(Cl)cc3)nc(/N=C3\C(=O)N(CN4CCOCC4)c4ccc(Cl)cc43)n2)cc1,H37Rv,EC50,BACTEC,,,,<6.25 µg/mL
O=C(N/N=C/c1ccc(F)cc1)c1ccncc1,16PI,MIC,,,,,>5 µg/mL
O=C(O)c1ccc2cccnc2c1O,M 607,MIC50,,,,,>25 µg/mL
Cc1ccc(-c2cc(-c3ccc(Cl)cc3)nc(/N=C3\C(=O)N(CN(C)C)c4ccc(Br)cc43)n2)cc1,H37Rv,inhibition,BACTEC,,6.25 µg/mL,,88%
COc1cc2ccnc3c2c(c1OC(=O)c1ccc(OC(F)(F)F)cc1)N(C)C=C3,H37Rv,MIC,,,,,>128 µg/mL
CCC(CO)NC[C@@H]1N[C@H](CO)[C@@H](O)[C@@H]1O,H37Ra,MIC,,,,,>128 µg/mL
O=C(O)C1=CO[C@@H](O[C@@H]2O[C@H](CO)[C@@H](O)[C@H](O)[C@H]2O)[C@H]2[C@@H]1C=C[C@]2(O)CO,H37Rv,MIC bound,BACTEC,,,,>12.5 µg/mL
COc1cc(-c2nnc(SCC3(c4ccccc4)OCCO3)o2)cc(OC)c1OC,H37Rv,inhibition,BACTEC,,6.25 µg/mL,,14%
CCn1cc(C(=O)O)c(=O)c2cc(F)c(N3CCN(C/C(=N/O)c4ccc(C)cc4)CC3)cc21,H37Rv,EC50,,,,,>6.25 µg/mL
CCCCC(=O)Oc1ccc2c(c1)[nH]c1c(C)nccc12,H37Rv,inhibition,,,6.25 µg/mL,,16%
CCCCc1ccc(O)c2ncccc12,H37Rv,MIC50,,,,,>10 µg/mL